{
  "source": "paper PMC5722320",
  "molecular_target": "PsrA (UniProt Q9HZJ9)",
  "assay": "EMSA",
  "conditions": "0-50 ng PsrA; recombinant protein; protein details: 6xHis (Fig 3C: PsrA-his tag); label: 32P; probe letters rebuilt from the primers and the genome",
  "note": "The exact form of at least one protein or probe is not confirmed.",
  "data": [
    {"sequence": "GAAACGGATATCACGCAAGGGGGCCTTGTAATCAGGCATAGCAGTCAACCTCTACGAAGGGTTCTGGTTAATCGGCGACCGGACGGATGTCCAGAGTCTGCGGTCGCAGTGCGGGATCGCTCCCGGTCGCCTTGCCGGACGCACTCATGCGTCCCGGCTCTCAAACAGGCGTTTGAAACATACGTTTACGCCAATCCCTTGTCAAGCATCCGAACCGACCGCTCGGTCATGCCCGAAATCACTGGCAGCCACGTCCTTCCAAAGCACTTTCGTCTCTCTCAGTAAAGCCCATGGCGAAGCGCCCGGCAGGCTTCAGGGGCCGCCGGGTGACAGTCGGAAAAGGAAGGGTC (double strand) [PA0506 promoter fragment (349 bp)]", "values": [
      {"measurement": "binding result", "value": "binds"}
    ]}
  ]
}
